Results of unrelated studies side by side (data: NIAID ChemDB).

All rows: tests in culture; species: Mycobacterium kansasii; read-out: MIC

Blank or dashed fields: not listed here. Rows are shuffled and stem from different studies.

compound,conditions,read by,strain,value
O=C(NC1CCCCC1)N(C(=O)c1cnccn1)C1CCCCC1,7 d,,235/80,500 µM
Cc1ccc(-n2c(=S)oc3ccc(Br)cc3c2=S)cc1,14 d,,My 235/80,4 µM
O=C(Oc1cc(Cl)ccc1C(=O)Nc1ccc(C(F)(F)F)cc1)c1ccccc1,14 d,broth dilution,6509/96,2 µM
N/C(=N\N=C\c1ccccc1O)SCc1cccc(Cl)c1,21 d,broth dilution,ATCC 12478,62.5 µM
O=C(N[C@@H](Cc1ccccc1)c1cnc(-c2ccccc2)[nH]1)OCc1ccccc1,14 d,,My 6509/96,>250 µM
N/C(=N\N=C\c1ccccc1)SCc1ccc(C(F)(F)F)cc1,14 d,broth dilution,6509/96,32 µM
O=C(Nc1cccc(Br)c1)c1cc(Cl)ccc1OS(=O)(=O)c1ccccc1,21 d,,6509/96,8 µM
Cc1ccc2oc(=O)n(-c3ccc(Br)cc3)c(=S)c2c1,21 d,,6509/96,4 µM
C[C@@H](NC(=O)OCc1ccccc1)c1cnc(-c2ccccc2)[nH]1,7 d,,My 6509/96,62.5 µM
Cc1ccc2oc(=S)n(-c3ccc(Cl)cc3)c(=S)c2c1,14 d,,My 235/80,4 µM
O=C(Nc1ccc(Cl)c(Cl)c1)c1ccc(Cl)cc1OS(=O)(=O)c1ccccc1,21 d,,235/80,8 µM
COc1ccc2oc(=O)n(-c3cccc(Cl)c3)c(=S)c2c1,21 d,,6509/96,32 µM
O=C(Oc1cc(Cl)ccc1C(=O)Nc1ccc(F)cc1)c1cnccn1,21 d,,6509/96,8 µM
O=C(Oc1cc(Cl)ccc1C(=O)Nc1ccc(F)cc1)c1ccccc1,7 d,broth dilution,235/80,2 µM
COc1ccc2oc(=S)n(-c3ccc(C(F)(F)F)cc3)c(=S)c2c1,21 d,,My 235/80,32 µM
O=C(Oc1ccc(Cl)cc1C(=O)Nc1ccc(Cl)cc1)c1cnccn1,7 d,,6509/96,1 µM
O=C(Nc1ccc(Br)cc1)c1cc(Cl)ccc1OS(=O)(=O)c1ccccc1,14 d,,235/80,8 µM
C[C@@H](NC(=O)OCc1ccccc1)c1cnc(-c2ccc([N+](=O)[O-])cc2)[nH]1,7 d,,My 6509/96,>125 µM
O=C(Nc1cccc(C(F)(F)F)c1)c1cc(Cl)ccc1OS(=O)(=O)c1ccccc1,14 d,,6509/96,16 µM
COc1ccc2oc(=S)n(-c3ccc(Br)cc3)c(=S)c2c1,14 d,,My 235/80,32 µM
O=C(Oc1cc(Cl)ccc1C(=O)Nc1ccc(Br)cc1)c1ccccc1,21 d,broth dilution,235/80,4 µM
N/C(=N\N=C\c1ccccc1)SCc1cccc(Cl)c1,14 d,broth dilution,6509/96,62.5 µM
O=C(Oc1ccc(Cl)cc1C(=O)Nc1ccc(C(F)(F)F)cc1)c1cnccn1,14 d,,235/80,2 µM
O=C(N[C@@H](Cc1ccccc1)c1cnc(-c2ccc([N+](=O)[O-])cc2)[nH]1)OCc1ccccc1,14 d,,My 235/80,32 µM
O=C(Oc1ccc(Cl)cc1C(=O)Nc1cccc(Cl)c1)c1ccccc1,7 d,broth dilution,6509/96,4 µM
N/C(=N\N=C\c1cc(Br)ccc1O)SCc1ccc(F)cc1,14 d,broth dilution,6509/96,32 µM
Fc1ccc(-n2c(=S)oc3ccc(F)cc3c2=S)cc1,14 d,,6509/96,8 µM
O=C(Oc1cc(Cl)ccc1C(=O)Nc1cccc(Br)c1)c1ccccc1,7 d,broth dilution,235/80,2 µM
CC(C)[C@H](NC(=O)OCc1ccccc1)c1cnc(-c2ccccc2)[nH]1,21 d,,My 6509/96,62.5 µM
O=C(Nc1ccc(F)cc1)c1ccc(Cl)cc1OS(=O)(=O)c1ccccc1,14 d,,6509/96,16 µM
O=C(OCc1ccccc1)N1CCC[C@H]1c1cnc(-c2ccccc2)[nH]1,21 d,,My 235/80,62.5 µM
COC(=O)c1cnccn1,7 d,,6509/96,500 µM
O=C(Oc1cc(Cl)ccc1C(=O)Nc1ccc(Cl)cc1)c1ccccc1,7 d,broth dilution,235/80,2 µM

The last 4 rows once more:

compound,conditions,read by,strain,value
O=C(Nc1ccc(F)cc1)c1ccc(Cl)cc1OS(=O)(=O)c1ccccc1,14 d,,6509/96,16 µM
O=C(OCc1ccccc1)N1CCC[C@H]1c1cnc(-c2ccccc2)[nH]1,21 d,,My 235/80,62.5 µM
COC(=O)c1cnccn1,7 d,,6509/96,500 µM
O=C(Oc1cc(Cl)ccc1C(=O)Nc1ccc(Cl)cc1)c1ccccc1,7 d,broth dilution,235/80,2 µM